{"source": "patent US20240180982A1", "about": "(published 2024)", "biological_target": "CAR on CHO-CAR cells (human) (UniProt P78310)", "test": "FACS", "design": "unit not given beside the values"}
{"substance": "Recombinant HAdV-C5 fiber knob protein (from UniProt P11818 387-581)", "values": [{"measurement": "IC50", "result": "0.0001804 ?"}]}
